Molecular target: 2019 novel coronavirus (2019-nCoV) spike protein receptor-binding domain (2019-nCoV)
Test: BLI

CR3022
Kd: 6.28 nM | koff: 0.00116 s⁻¹

Reference: publication PMC7048180
